Measured values from several laboratories, pooled; numbers as filed in NIAID ChemDB.

Shared fields: whole-cell or culture tests; species: HIV-1

Rows are shuffled and stem from different studies. An empty or dashed field is not shown. ECn is the concentration giving n% inhibition of infection, replication or growth.

SMILES | conditions | read-out | strain or isolate | mutations | cells | method | result
Cc1cn([C@H]2C[C@H](N=[N+]=[N-])[C@@H](COC(=O)C(=O)NC(Cc3ccccc3)C(=O)O)O2)c(=O)[nH]c1=O | - | EC50 | IIIB | - | MT-2 | p24 | 0.35 µM
Nc1ccn([C@H]2CC[C@@H](CO)O2)c(=O)n1 | - | EC50 | A17 | Pyridinone- and TIBO-resistant | MT-2 | cytopathic effect / MTT | ~0.1 µg/mL
Cc1ccnc2c1NC(=O)c1cccnc1N2C1CC1 | - | EC50 | N119 nevirapine-resistant (RT Y181C) | RT-Y181C | MT-2 | cytopathic effect / MTT | >100 µM
O=C1CCC(c2ccccc2)C(=O)N1CCCCN1CCN(c2ccccn2)CC1 | - | EC50 | - | - | MT-4 | MTT | >100 µM
C=C(C)[C@@]1(O)[C@H](OC(=O)c2ccccc2)[C@@H]2[C@H](OC(C)=O)[C@@]3(C)O[C@@]4([C@@H]3OC(=O)c3ccccc3)[C@@H](OC(C)=O)[C@@H](C)C[C@H]4[C@@]2(O)[C@H](C)[C@@H]1O | - | EC50 | IIIB | - | C8166 | cytopathic effect / syncytia | 2.04 µg/mL
COC(=O)N[C@H](C(=O)N[C@@H](Cc1ccccc1)[C@@H](O)CN(Cc1ccc(-c2ccccn2)cc1)NC(=O)[C@@H](NC(=O)OC)C(C)(C)C)C(C)(C)C | - | EC50 | LAI | - | MT-2 | MTT | 0.0048 µM
O=S1(=O)c2ccccc2NCc2cccn21 | - | EC50 | IIIB | - | MT-4 | cytopathic effect / MTT | >129 µM
CCO/N=C(\c1ccc(Br)cc1)C1CCN(C2(C)CCN(C(=O)c3c(C)cc[n+]([O-])c3C)CC2)CC1 | - | EC50 | BAL R5 | - | PBMC | p24 | 0.004 µM
CCOC(=O)C1c2cccn2S(=O)(=O)c2ccccc2N1C(=O)CBr | - | EC50 | IIIB | - | MT-4 | cytopathic effect / MTT | >10 µM
CC[C@H](C)[C@H](NC(=O)C(=O)OC[C@H]1O[C@@H](n2cc(C)c(=O)[nH]c2=O)C[C@@H]1N=[N+]=[N-])C(=O)O | - | EC50 | IIIB | - | PBMC | p24 | 0.035 µM
Cc1cc(S(N)(=O)=O)ccc1NC(=O)COc1ccc(Cl)cc1C(=O)c1cc(C#N)cc(N(C)C)c1 | - | EC50 | - | Y181C | HeLa | - | 0.0028 µM
C=C(C)[C@@]1(OC(=O)c2ccccc2)[C@H](OC(C)=O)[C@@H]2[C@H](OC(C)=O)[C@@]3(C)O[C@@]4([C@@H]3OC(=O)c3ccccc3)[C@@H](OC(C)=O)[C@@H](C)C[C@H]4[C@@]2(O)[C@H](C)[C@@H]1OC(C)=O | - | EC50 | IIIB | - | C8166 | cytopathic effect / syncytia | 61.21 µg/mL
CCc1nc2sccn2c1C(=O)c1ccco1 | - | EC50 | LAI | - | CEM + CEM-SS | RT activity | 3 µM
CC(=O)N1CCC(C(=O)N(CCCN2CCC(Cc3ccc(C(N)=O)cc3)CC2)c2ccc(C)c(Cl)c2)CC1 | - | EC50 | SW X4 clinical isolate | - | PBMC | p24 | >10 µM
CC1CCC(c2nc(C(=O)NCc3ccc(F)cc3)c(O)c(=O)n2C)N1C | 50% human serum | EC95 | IIIB | - | MT-4 | p24 / ELISA | >1 µM
O=C(O)P(=O)(O)O | - | EC50 | HXB2 | - | MT-2 | - | 17.6 µM
COc1cc(C#N)cc(C(=O)c2cc(Cl)ccc2OCC(=O)Nc2ccc(S(N)(=O)=O)cc2C)c1 | - | EC50 | - | V106A | HeLa | - | 0.0022 µM
CC(C)(C)NC(=O)[C@@H]1C[C@@H]2CCCC[C@@H]2CN1C[C@@H](O)[C@H](Cc1ccccc1)NC(=O)O[C@@H]1CO[C@@H]2CCO[C@@H]21 | - | EC95 | IIIB | - | MT-4 | p24 | >0.2 µM
COc1c(O)c(I)c2c(c1OC)-c1c(c(I)c(O)c(OC)c1OC)C[C@H](C)[C@H](C)C2 | - | EC50 | 1506-RS (RT-Y188L) | RT-Y188L | MT-4 | cytopathic effect / MTT | >20 µM
CC#CCN1C(=O)[C@H]([C@@H](O)C2CCCCC2)NC(=O)C12CCN(Cc1c(C)nn(-c3ccccc3)c1C)CC2 | - | EC90 | JR-FL R5 | - | PBMC | p24 | 0.144 µM
Cc1cn([C@H]2C[C@@H](CI)[C@@H](CO)O2)c(=O)[nH]c1=O | - | EC50 | LAV | - | PBMC | RT activity | >100 µM
Cc1cc(=O)c2ccc(N=C=S)cc2o1 | - | EC50 | 89.6 | - | PBMC | p24 / ELISA | 0.164 µM
CC(C)(C)NC(=O)[C@@H]1C[C@@H]2CCCC[C@@H]2CN1C[C@@H](O)[C@H](Cc1ccccc1)NC(=O)O[C@H]1CCS(=O)(=O)C1 | - | EC50 | IIIB | - | MT-4 | p24 | <0.364 µM
CC(C)=CCN1Cc2ncnc3[nH]c(=O)n(c23)CC1C | - | EC50 | IIIB | - | MT-4 | - | 2 µM
CC(=O)N[C@H]1C[C@@H](c2nc(C(=O)NCc3ccc(F)cc3)c(O)c(=O)n2C)N(C)C1 | 10% FBS | EC95 | IIIB | - | MT-4 | p24 / ELISA | >1 µM
C=C(C)[C@@]1(OC(=O)c2ccccc2)[C@H](OC(C)=O)[C@@H]2[C@H](OC(C)=O)[C@@]3(C)O[C@@]4([C@@H]3OC(C)=O)[C@@H](OC(C)=O)[C@@H](C)C[C@H]4[C@@]2(O)[C@H](C)[C@@H]1OC(C)=O | - | EC50 | IIIB | - | C8166 | cytopathic effect / syncytia | 9.05 µg/mL
CC(C)=CCC[C@@]1(C)[C@@H]2CC[C@]3(C)Oc4cc(C)c(C(=O)O)c(O)c4[C@H]1[C@H]23 | - | EC50 | IIIB | - | H9 | p24 / ELISA | 0.37 µg/mL
Nc1ncnc2c1ncn2[C@H]1CC[C@@H](CO)O1 | - | EC50 | IIIB | - | MT-4 | cytopathic effect / p24 / trypan blue | 21 µM
Cc1nc2ccccc2n(CC(=O)NNC(=O)c2ccc(Cl)cc2)c1=O | - | EC50 | IIIB | - | C8166 | syncytia / visual reading | >540 µM
CC(C)CN1C(=O)c2cccn2S(=O)(=O)c2ccccc21 | - | EC50 | IIIB | - | MT-4 | cytopathic effect / MTT | >184 µM
Cc1cn([C@H]2C[C@H](N=[N+]=[N-])[C@@H](CO)O2)c(=O)[nH]c1=O | - | EC50 | 92BR018 | - | TZM-bl | luciferase | 0.016 µM
CCc1nc2ccccn2c1C(=O)c1cccs1 | - | EC50 | - | - | U1 | RT activity | >100 µM
CC(C)(C)NC(=O)[C@@H]1C[C@@H]2CCCC[C@@H]2CN1C[C@@H](O)[C@H](Cc1ccccc1)NC(=O)O[C@H]1CO[C@@]2(C)OCC[C@@H]12 | - | EC95 | IIIB | - | MT-4 | p24 | >0.2 µM
CCc1nc2ccccn2c1C(=O)c1ccc(O)cc1 | - | EC50 | IIIB | - | MT-4 | RT activity | >100 µM
C[C@@H]1C[C@@H]2[C@@H](OC[C@@H]2OC(=O)N[C@@H](Cc2ccccc2)[C@H](O)CN2C[C@H]3CCCC[C@H]3C[C@H]2C(=O)NC(C)(C)C)O1 | - | EC50 | IIIB | - | MT-4 | p24 | <0.2 µM
Cc1cn([C@H]2C[C@H](N=[N+]=[N-])[C@@H](COC(=O)C(=O)N[C@H](C(=O)O)C(C)C)O2)c(=O)[nH]c1=O | - | EC50 | IIIB | - | PBMC | p24 | 0.015 µM
CC(=O)c1cc(C#N)cc(C(=O)c2cc(Cl)ccc2OCC(=O)Nc2ccc(S(N)(=O)=O)cc2C)c1 | - | EC50 | - | WTRVA | HeLa | - | 0.0007 µM
CS(=O)(=O)OCC1Nc2ccccc2S(=O)(=O)n2cccc21 | - | EC50 | IIIB | - | MT-4 | cytopathic effect / MTT | >130 µM
CC(C)=CCOc1cc(NC(=S)c2ccoc2C)ccc1Cl | - | EC50 | UC781-resistant (RT K103N Y181C) A17 | RT-K103N Y181C | MT-2 | p24 | >4 µg/mL
CCc1nc2ccccn2c1C(=O)c1ccco1 | - | EC50 | IIIB | - | MT-4 | RT activity | 18 µM
Cn1c(C2COCCN2)nc(C(=O)NCc2ccc(F)cc2)c(O)c1=O | 10% FBS | EC95 | IIIB | - | MT-4 | p24 / ELISA | >1 µM
CCN1c2ncc(NCc3ccc(OCP(=O)(O)O)cc3)cc2C(=O)N(C)c2cccnc21 | - | EC50 | - | Y181C | - | - | >5 µM
C/C=C/CN1C(=O)c2cccn2S(=O)(=O)c2ccccc21 | - | EC50 | IIIB | - | MT-4 | cytopathic effect / MTT | 7.5 µM
O=C1CCC(c2ccccc2)C(=O)N1 | - | EC50 | - | - | MT-4 | MTT | >100 µM
O=C(CN1C(=O)c2cccn2S(=O)(=O)c2ccccc21)OCc1ccccc1 | - | EC50 | IIIB | - | MT-4 | cytopathic effect / MTT | >300 µM
CC(=O)Nc1cc(C#N)cc(C(=O)c2cc(Cl)ccc2OCC(=O)Nc2ccc(S(N)(=O)=O)cc2C)c1 | - | EC50 | - | V106A | HeLa | - | 1.1 µM
CCc1nc2sccn2c1C(=O)c1ccccc1 | - | EC50 | IIIB | - | MT-4 | RT activity | 37 µM
CCOC(=O)C1Nc2ccccc2S(=O)(=O)n2cccc21 | - | EC50 | IIIB | - | MT-4 | cytopathic effect / MTT | >300 µM
C[C@H](Cn1cnc2c(N)ncnc21)OCP(=O)(O)O | - | EC50 | IIIB | - | CEM | - | 5 µM
CCCCN1C(=O)[C@@H]([C@H](O)C2CCCCC2)NC(=O)C12CCN(Cc1ccc(Oc3ccc(C(=O)O)cc3)cc1)CC2 | - | EC90 | BAL R5 | - | PBMC | p24 | 0.012 µM
C[C@H](Cn1cnc2c(N)ncnc21)OCP(=O)(O)O | 7 d | EC50 | IIIB | - | MT-2 | XTT / p24 | 0.63 µM
O=C1CCC(c2ccccc2)C(=O)N1CCCN1CCN(c2ncccn2)CC1 | - | EC50 | - | - | MT-4 | MTT | >100 µM
Nc1ccn([C@H]2CC[C@@H](CO)O2)c(=O)n1 | - | EC50 | HXB2 | RT-L74M | HELA/CD4 + HELA CD4+ | plaque count | 0.6 µM
COc1ccc2c(c1)N(C(=O)OC(C)C)[C@@H](CSC)C(=S)N2 | - | EC50 | D117III | - | Macrophage + Monocytes/macrophages | p24 | 0.006 µM
O=C(NCCCCN1CCCC2=C[C@H]3C[C@H](CN4CCCC[C@H]34)[C@@H]21)c1ccc(CNS(=O)(=O)C(F)(F)F)cc1 | - | EC50 | - | - | - | - | >20 µM
CC1(Cl)C(=O)NC(=O)N([C@H]2C[C@H](N=[N+]=[N-])[C@@H](CO)O2)C1O | - | EC50 | IIIB | - | PBMC | p24 | >10 µM
CC(C)(C)NC(=O)[C@@H]1C[C@@H]2CCCC[C@@H]2CN1C[C@@H](O)[C@H](Cc1ccccc1)NC(=O)[C@H](CC(N)=O)NC(=O)c1ccc2ccccc2n1 | - | EC90 | NL4-3 X4 | - | PBMC | p24 | 0.048 µM
C=C(C)[C@@]1(O)[C@H](OC(C)=O)[C@@H]2[C@H](OC(=O)c3ccccc3)[C@@]3(C)O[C@@]4([C@@H]3OC(=O)c3ccccc3)[C@@H](O)[C@@H](C)C[C@H]4[C@@]2(O)[C@H](C)[C@@H]1OC(=O)c1ccccc1 | - | EC50 | IIIB | - | C8166 | cytopathic effect / syncytia | 9.17 µg/mL
Cc1cc(S(N)(=O)=O)ccc1NC(=O)COc1ccc(Cl)cc1C(=O)c1cc(C#N)cc(C(=O)O)c1 | - | EC50 | - | V106A | HeLa | - | >2 µM
O=C(Cc1ccc(Cl)cc1)OCC1Nc2ccccc2S(=O)(=O)n2cccc21 | - | EC50 | IIIB | - | MT-4 | cytopathic effect / MTT | 72 µM
Cc1cc(S(N)(=O)=O)ccc1NC(=O)COc1ccc(Cl)cc1C(=O)c1cc(C#N)cc(C(N)=O)c1 | - | EC50 | - | WTRVA | HeLa | - | 1.1 µM
Nc1nc2c(ncn2CCOCP(=O)(O)O)c(=O)[nH]1 | - | EC50 | HE | - | MT-4 | - | 0.26 µM
Nc1ccn([C@H]2CC[C@@H](CO)O2)c(=O)n1 | - | EC50 | IIIB-AZT-2 (RT D67N K70R V108A I135T) | RT-D67N K70R V108A I135T | MT-4 | - | 0.6 µM
O=C1CCC(c2ccccc2)C(=O)N1CCCCN1CCN(Cc2ccccc2)CC1 | - | EC50 | - | - | MT-4 | MTT | >100 µM
Cc1cn([C@H]2C[C@H](N=[N+]=[N-])[C@@H](CO)O2)c(=O)[nH]c1=O | - | EC50 | LAV | - | PBMC | RT activity | 0.003 µM

Repeating the final 3 entries:

SMILES,conditions,read-out,strain or isolate,mutations,cells,method,result
Nc1ccn([C@H]2CC[C@@H](CO)O2)c(=O)n1,-,EC50,IIIB-AZT-2 (RT D67N K70R V108A I135T),RT-D67N K70R V108A I135T,MT-4,-,0.6 µM
O=C1CCC(c2ccccc2)C(=O)N1CCCCN1CCN(Cc2ccccc2)CC1,-,EC50,-,-,MT-4,MTT,>100 µM
Cc1cn([C@H]2C[C@H](N=[N+]=[N-])[C@@H](CO)O2)c(=O)[nH]c1=O,-,EC50,LAV,-,PBMC,RT activity,0.003 µM